Data taken from paper PMC6467890, “A semi-synthetic neolignan derivative from dihydrodieugenol B selectively affects the bioenergetic system of Leishmania infantum and inhibits cell division” (Scientific Reports, 2019).

Test system: intracellular amastigotes of L. (L.) infantum
Experiment: Intracellular amastigotes in peritoneal macrophages, light microscopy counting (infection index)
Assay type: cell-based, Leishmania (L.) infantum
Settings: for SI (Selectivity Index): ratio between CC50 in NCTC cells and IC50 in intracellular amastigotes
Description: Peritoneal macrophages (1 × 10^5 cell/well) in 16-well slide chambers (NUNC) were infected with amastigotes at a ratio of 10:1 (amastigotes/macrophage) and treated with compounds (60 to 10 µM) for 96 h. Stained slides (Giemsa) were counted using light microscopy and IC50 determined by the infection index. Miltefosine was used as standard and untreated cells as a negative control.

Substance | SI (Selectivity Index) | selectivity index relative to dehydrodieugenol B (times higher than that of dehydrodieugenol B)
1-Propyl-3-(1′-propyl-3′-methoxyphenoxy)-4,5-dimethoxybenzene [Compound 3] | 2.7 | 
1-Propyl-3-(1′-propyl-3′-methoxyphenoxy)-5-methoxy-4-benzoyloxybenzene [Compound 2] | >32.8 | approximately 3 times
